The record followed here is ChEMBL document CHEMBL3227964 (J Med Chem, 1979).

Molecules are shown by their SMILES. The source made the active and inactive calls. The calls are words filed in the database; no cut-off is given here.

For this test, the system named is Escherichia coli. As to the kind of experiment: Induction of sensitization to irradiation in Escherichia coli AB1157 under hypoxic condition assessed as reduction in colony formation at 1 mM measured after irradiation. Format: functional, organism-based.

As to `O=[N+]([O-])c1cn(CCO)c([N+](=O)[O-])n1`, the outcome was Active.
